The target of series [1] is NA of Ind3006 (A/Indonesia/UT3006/05, H5N1) (Influenza A virus, UniProt I6YWY9). The experiment in a line: NA activity inhibition assay (MUNANA). The series is classed as biochemical. The note with it: read-out: IC50 (95% confidential interval), mean of duplicate reactions.
Series [2] deals with NA of A/New Caledonia/20/99 (H1N1). As to the kind of experiment: Binding stability of NA inhibitors to virus NA. Also on record: species or system influenza A virus (H1N1).
Series [3] deals with NA of A/Panama/2007/99 (H3N2). The experiment in a line: Binding stability of NA inhibitors to virus NA. Details: species or system influenza A virus (H3N2).
In another series the test system is NA of B/Mie/1/93. The experiment in a line: Binding stability of NA inhibitors to virus NA. Details: species or system influenza B virus.
For series [4] the following is noted: in vitro; cited from earlier work.
Where [5] appears, read: compound minus 3 (Oseltamivir carboxylate).
[6] abbreviates: linear regression of fluorescence 0 to 50000, intercept 0.

For the compound `CO[C@@H]([C@@H]1OC(C(=O)O)=C[C@H](N=C(N)N)[C@H]1NC(C)=O)[C@H](O)CO`, in series [1], the IC50 amounted to 0.29 nM. Moreover, the Slope difference in series [2] (compound minus 2 (Zanamivir)) was -92.66; in series [2] (setting [5]) it was -125.91; in series [2] (compound minus 4 (Peramivir)), 4.34; in series [2] (compound minus 5 (Background)) it was -452.18; in series [3] (compound minus 2 (Zanamivir)), -1.46; in series [3] (setting [5]) it was -6.32. Also, the Slope difference is given as 0.46 in series [3] (compound minus 4 (Peramivir)); -48.35 in series [3] (compound minus 5 (Background)); -118.54 in the series on NA of B/Mie/1/93 (compound minus 2 (Zanamivir)); -315.65 with NA of B/Mie/1/93 (setting [5]); -115.10 with NA of B/Mie/1/93 (compound minus 4 (Peramivir)); -888.52 with NA of B/Mie/1/93 (compound minus 5 (Background)). Moreover, the “Slope of the dissociation curve” value in series [2] (setting [6]) is recorded as 47.44; in series [3] (setting [6]), 0.65; in the series on NA of B/Mie/1/93 (setting [6]), 65.56. Moreover, in series [4], the cytotoxicity entry is given as “limited cytotoxicity”.

The record behind these values is publication PMC2829070 (PLoS Pathogens, 2010).
